Test system: recombinant purified HA of influenza virus A/California/07/2009 (H1N1)
Conditions: (8) 1.13 mM, (6) 2.18 mM; time dependent

## O=C(O[C@@H]1Cc2c(O)cc(O)cc2O[C@@H]1c1cc(O)c(O)c(O)c1)c1cc(O)c(O)c(O)c1 [compound 6, reference compound]
  monomeric HA band in Coomassie-stained gels: slight reduction of the monomeric HA band
